Assay results published in publication PMC6899631, “An essential pentatricopeptide repeat protein in the apicomplexan remnant chloroplast”.
For at least one entry, the source does not settle the construct or the ends of the probe. At least one verdict was read from the data and is not stated in words by the source. Tags and fusion partners may be left off the protein sequences shown.

Molecular target: T1, PfPPR1 (tag removed) (UniProt Q8IM30)
T1 sequence (looked up): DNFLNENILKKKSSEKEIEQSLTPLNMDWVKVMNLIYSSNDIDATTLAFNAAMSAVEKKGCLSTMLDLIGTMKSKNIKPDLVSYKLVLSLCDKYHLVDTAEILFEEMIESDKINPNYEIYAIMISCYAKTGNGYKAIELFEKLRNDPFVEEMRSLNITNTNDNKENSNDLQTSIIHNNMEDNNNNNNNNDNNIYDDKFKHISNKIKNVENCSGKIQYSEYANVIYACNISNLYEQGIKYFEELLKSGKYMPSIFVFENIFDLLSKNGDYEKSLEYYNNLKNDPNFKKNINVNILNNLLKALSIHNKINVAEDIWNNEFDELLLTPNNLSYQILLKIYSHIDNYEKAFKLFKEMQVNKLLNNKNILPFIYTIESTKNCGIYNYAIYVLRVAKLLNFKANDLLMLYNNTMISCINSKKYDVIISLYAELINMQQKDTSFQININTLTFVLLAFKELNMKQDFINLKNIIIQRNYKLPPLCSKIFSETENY
Assay: pull-down
Settings: TRX tag removed; Pull-down: 10 mM HEPES pH 7.5, 20 mM KCl, 1 mM MgCl2, 1 mM DTT, room temperature 15 min; 400 nM biotinylated RNA, 800 nM protein (Results state 1:1 molar); recombinant protein; residues 121-608; label: 3' biotin (pull-down)

ACGACAUUAUAAGGUCGGA [RNA oligo 2]
binding result: binds
